Source: ChEMBL document CHEMBL1649456 (Antimicrob Agents Chemother, 2009)
Calls of active or inactive are those of the source.

Key:
[1] = system: Coxiella burnetii; assay: Bactericidal activity against compound-resistant Coxiella burnetii Q212 obtained from patient with acute Q fever infected in african green monkey Vero cells assessed as decrease in bacterial titer at 4 ug/ml after 24 hrs by shell vial assay
[2] = system: Coxiella burnetii; assay: Bactericidal activity against compound-resistant Coxiella burnetii Nine-Mile obtained from patient with acute Q fever infected in african green monkey Vero cells assessed as decrease in bacterial titer at 4 ug/ml after 24 hrs by shell vial assay
[3] = system: Coxiella burnetii; assay: Bactericidal activity against compound-resistant Coxiella burnetii isolate CP1 obtained from patient with acute Q fever infected in african green monkey Vero cells assessed as decrease in bacterial titer at 4 ug/ml after 24 hrs by shell vial assay
[4] = system: Coxiella burnetii; assay: Bactericidal activity against compound-resistant Coxiella burnetii isolate CP2 obtained from patient with acute Q fever infected in african green monkey Vero cells assessed as decrease in bacterial titer at 4 ug/ml after 24 hrs by shell vial assay
[5] = system: Coxiella burnetii; assay: Bactericidal activity against compound-resistant Coxiella burnetii isolate CP3 obtained from patient with acute Q fever infected in african green monkey Vero cells assessed as decrease in bacterial titer at 4 ug/ml after 24 hrs by shell vial assay
[6] = system: Coxiella burnetii; assay: Bactericidal activity against compound-resistant Coxiella burnetii isolate CP4 obtained from patient with acute Q fever infected in african green monkey Vero cells assessed as decrease in bacterial titer at 4 ug/ml after 24 hrs by shell vial assay
[7] = system: Coxiella burnetii; assay: Bactericidal activity against compound-resistant Coxiella burnetii isolate CP5 obtained from patient with acute Q fever infected in african green monkey Vero cells assessed as decrease in bacterial titer at 4 ug/ml after 24 hrs by shell vial assay
[8] = system: Coxiella burnetii; assay: Bactericidal activity against compound-resistant Coxiella burnetii isolate CP6 obtained from patient with acute Q fever infected in african green monkey Vero cells assessed as decrease in bacterial titer at 4 ug/ml after 24 hrs by shell vial assay
[9] = system: Coxiella burnetii; assay: Bactericidal activity against compound-resistant Coxiella burnetii isolate CP7 obtained from patient with acute Q fever infected in african green monkey Vero cells assessed as decrease in bacterial titer at 4 ug/ml after 24 hrs by shell vial assay
[10] = system: Coxiella burnetii; assay: Bactericidal activity against compound-resistant Coxiella burnetii isolate CP8 obtained from patient with acute Q fever infected in african green monkey Vero cells assessed as decrease in bacterial titer at 4 ug/ml after 24 hrs by shell vial assay

Measured: Activity

CN(C)c1cc(NC(=O)CNC(C)(C)C)c(O)c2c1C[C@H]1C[C@H]3[C@H](N(C)C)C(O)=C(C(N)=O)C(=O)[C@@]3(O)C(O)=C1C2=O [TIGECYCLINE]
inactive: all assays above
